Some peptides are written in HELM: one residue between dots, names in brackets for other building blocks, links after the first $. Bounds are passed on as bounds.

This note sets out measurements from PMC8231256 (Molecules, 2021).

The first data set in a line: general procedure: Fmoc solid-phase peptide synthesis; 2-chlorotrityl chloride (CTC) resin (1.46 mmol/g, 100–200 mesh); for amides CTC resin modified with 1,6-diaminohexane li; DIC/HOBt; HATU/NMM for 6-heptynoic acid in N-methyl peptides. The conditions noted are these: whole synthesis.
The substance “PEPTIDE1{[Hept6yn].V.[5-MeNai-Val].A.F}$$$$V2.0” registered an isolated yield of 4%.

Turning to “PEPTIDE1{[Hept6yn].V.[Agl-Val].A.F.[NH(CH2)6NH2]}$$$$V2.0”, the isolated yield is 3%.

For “PEPTIDE1{[Hept6yn].V.[Agl-Val].A.F}$$$$V2.0”, the isolated yield was 3%.

For “PEPTIDE1{[Hept6yn].V.[Val(Me)].V.A.F.[NH(CH2)6NH2]}$$$$V2.0”, the isolated yield was found to be 2%.

Take “PEPTIDE1{[Hept6yn].[5-MeNai-Val].V.A.F}$$$$V2.0”: the isolated yield is 9%.

“PEPTIDE1{[Hept6yn].[Agl(Me)-Val].[Val(Me)].[Ala(Me)].[Phe(Me)].[NH(CH2)6NH2]}$$$$V2.0”: the isolated yield was 3%.

“PEPTIDE1{[Hept6yn].[Agl-Val].V.A.F.[NH(CH2)6NH2]}$$$$V2.0”: the isolated yield was found to be 3%.

As for “PEPTIDE1{[Hept6yn].[Agl-Val].V.A.F}$$$$V2.0”, the isolated yield was 3%.

The substance “PEPTIDE1{[Hept6yn].[Val(Me)].V.V.A.F.[NH(CH2)6NH2]}$$$$V2.0” returned an isolated yield of 3%.

For the substance “PEPTIDE1{[Hept6yn].[Val(Me)].[Agl(Me)-Val].[Ala(Me)].[Phe(Me)].[NH(CH2)6NH2]}$$$$V2.0”, the isolated yield came out at 3%.

The substance “PEPTIDE1{[Hept6yn].[Val(Me)].[Agl(Me)-Val].[Ala(Me)].[Phe(Me)]}$$$$V2.0” had an isolated yield of 3%.

In turn, “PEPTIDE1{[Hept6yn].[Val(Me)].[Val(Me)].[Agl(Me)-Ala].[Phe(Me)].[NH(CH2)6NH2]}$$$$V2.0” registered an isolated yield of 2%.

Turning to “PEPTIDE1{[Hept6yn].[Val(Me)].[Val(Me)].[Agl(Me)-Ala].[Phe(Me)]}$$$$V2.0”, the isolated yield is 2%.

Staying with this data set, now noted: whole synthesis, 214 nm.
On to “PEPTIDE1{[Hept6yn].V.[5-MeNai-Val].A.F}$$$$V2.0”, for which the “final LC-MS purity” value is greater than 96%.

Regarding “PEPTIDE1{[Hept6yn].V.[Agl-Val].A.F.[NH(CH2)6NH2]}$$$$V2.0”, the “final LC-MS purity” value is greater than 96%.

Regarding “PEPTIDE1{[Hept6yn].V.[Agl-Val].A.F}$$$$V2.0”, the “final purity (method not given)” value is listed as greater than 99%.

For “PEPTIDE1{[Hept6yn].V.[Val(Me)].V.A.F.[NH(CH2)6NH2]}$$$$V2.0”, the “final purity (method not given)” value was greater than 99%.

In the case of “PEPTIDE1{[Hept6yn].[5-MeNai-Val].V.A.F}$$$$V2.0”, the “final purity (method not given)” value was greater than 99%.

As to “PEPTIDE1{[Hept6yn].[Agl(Me)-Val].[Val(Me)].[Ala(Me)].[Phe(Me)].[NH(CH2)6NH2]}$$$$V2.0”, the “final purity (method not given)” value is greater than 99%.

In the case of “PEPTIDE1{[Hept6yn].[Agl-Val].V.A.F.[NH(CH2)6NH2]}$$$$V2.0”, the “final LC-MS purity” value is greater than 94%.

In the case of “PEPTIDE1{[Hept6yn].[Agl-Val].V.A.F}$$$$V2.0”, the “final purity (method not given)” value is greater than 99%.

Consider “PEPTIDE1{[Hept6yn].[Val(Me)].V.V.A.F.[NH(CH2)6NH2]}$$$$V2.0”, for which the “final purity (method not given)” value is recorded as greater than 99%.

With “PEPTIDE1{[Hept6yn].[Val(Me)].[Agl(Me)-Val].[Ala(Me)].[Phe(Me)].[NH(CH2)6NH2]}$$$$V2.0”, the “final LC-MS purity” value was greater than 99%.

Consider “PEPTIDE1{[Hept6yn].[Val(Me)].[Agl(Me)-Val].[Ala(Me)].[Phe(Me)]}$$$$V2.0”, for which the “final LC-MS purity” value is greater than 99%.

As to “PEPTIDE1{[Hept6yn].[Val(Me)].[Val(Me)].[Agl(Me)-Ala].[Phe(Me)].[NH(CH2)6NH2]}$$$$V2.0”, the “final LC-MS purity” value is given as greater than 99%.

As for “PEPTIDE1{[Hept6yn].[Val(Me)].[Val(Me)].[Agl(Me)-Ala].[Phe(Me)]}$$$$V2.0”, the “final LC-MS purity” value is given as greater than 99%.

The data set is the same for the next values; noted with them: whole synthesis, Method B (MeOH).
Consider “PEPTIDE1{[Hept6yn].V.[Agl-Val].A.F.[NH(CH2)6NH2]}$$$$V2.0”, for which the “purity (crude or final not stated)” value was “Purity ≥ 99%”.

For the substance “PEPTIDE1{[Hept6yn].V.[Val(Me)].V.A.F.[NH(CH2)6NH2]}$$$$V2.0”, the “purity (crude or final not stated)” value is recorded as “Purity ≥ 99%”.

Consider “PEPTIDE1{[Hept6yn].[Agl-Val].V.A.F.[NH(CH2)6NH2]}$$$$V2.0”, for which the “purity (crude or final not stated)” value is given as “Purity ≥ 94%”.

In the case of “PEPTIDE1{[Hept6yn].[Val(Me)].V.V.A.F.[NH(CH2)6NH2]}$$$$V2.0”, the “purity (crude or final not stated)” value is “Purity ≥ 99%”.

Still in this data set, the particulars now being: whole synthesis, Method C (MeOH).
Turning to “PEPTIDE1{[Hept6yn].V.[5-MeNai-Val].A.F}$$$$V2.0”, the “purity (crude or final not stated)” value is “Purity ≥ 96%”.

“PEPTIDE1{[Hept6yn].V.[Agl-Val].A.F}$$$$V2.0”: the “purity (crude or final not stated)” value is “Purity ≥ 99%”.

On to “PEPTIDE1{[Hept6yn].[5-MeNai-Val].V.A.F}$$$$V2.0”, for which the “purity (crude or final not stated)” value is “Purity ≥ 99%”.

With “PEPTIDE1{[Hept6yn].[Agl(Me)-Val].[Val(Me)].[Ala(Me)].[Phe(Me)].[NH(CH2)6NH2]}$$$$V2.0”, the “purity (crude or final not stated)” value is recorded as “Purity ≥ 99%”.

Turning to “PEPTIDE1{[Hept6yn].[Agl-Val].V.A.F}$$$$V2.0”, the “purity (crude or final not stated)” value is “Purity ≥ 99%”.

Regarding “PEPTIDE1{[Hept6yn].[Val(Me)].[Agl(Me)-Val].[Ala(Me)].[Phe(Me)].[NH(CH2)6NH2]}$$$$V2.0”, the “purity (crude or final not stated)” value is recorded as “Purity ≥ 99%”.

On to “PEPTIDE1{[Hept6yn].[Val(Me)].[Agl(Me)-Val].[Ala(Me)].[Phe(Me)]}$$$$V2.0”, for which the “purity (crude or final not stated)” value is given as “Purity ≥ 99%”.

On to “PEPTIDE1{[Hept6yn].[Val(Me)].[Val(Me)].[Agl(Me)-Ala].[Phe(Me)].[NH(CH2)6NH2]}$$$$V2.0”, for which the “purity (crude or final not stated)” value is “Purity ≥ 99%”.

For “PEPTIDE1{[Hept6yn].[Val(Me)].[Val(Me)].[Agl(Me)-Ala].[Phe(Me)]}$$$$V2.0”, the “purity (crude or final not stated)” value is “Purity ≥ 99%”.

The same data set, now with this note: whole synthesis, Method D (MeCN).
For the substance “PEPTIDE1{[Hept6yn].V.[Agl-Val].A.F.[NH(CH2)6NH2]}$$$$V2.0”, the “purity (crude or final not stated)” value was “Purity ≥ 96%”.

In the case of “PEPTIDE1{[Hept6yn].V.[Val(Me)].V.A.F.[NH(CH2)6NH2]}$$$$V2.0”, the “purity (crude or final not stated)” value was “Purity ≥ 95%”.

Take “PEPTIDE1{[Hept6yn].[Val(Me)].V.V.A.F.[NH(CH2)6NH2]}$$$$V2.0”: the “purity (crude or final not stated)” value is recorded as “Purity ≥ 97%”.

The data set is the same for the next values; noted with them: whole synthesis, analytical LC-MS, C18 Phenomenex Gemini, two solvent systems, purity at 214 nm.
For “PEPTIDE1{[Hept6yn].V.[5-MeNai-Val].A.F}$$$$V2.0”, the “final LC-MS purity” value was greater than 99%.

Turning to “PEPTIDE1{[Hept6yn].V.[Agl-Val].A.F.[NH(CH2)6NH2]}$$$$V2.0”, the “final LC-MS purity” value was greater than 95%.

With “PEPTIDE1{[Hept6yn].V.[Agl-Val].A.F}$$$$V2.0”, the “final LC-MS purity” value was greater than 99%.

As to “PEPTIDE1{[Hept6yn].V.[Val(Me)].V.A.F.[NH(CH2)6NH2]}$$$$V2.0”, the “final LC-MS purity” value was greater than 99%.

In the case of “PEPTIDE1{[Hept6yn].[5-MeNai-Val].V.A.F}$$$$V2.0”, the “final LC-MS purity” value is greater than 99%.

As to “PEPTIDE1{[Hept6yn].[Agl(Me)-Val].[Val(Me)].[Ala(Me)].[Phe(Me)].[NH(CH2)6NH2]}$$$$V2.0”, the “final LC-MS purity” value is reported as greater than 99%.

As to “PEPTIDE1{[Hept6yn].[Agl-Val].V.A.F.[NH(CH2)6NH2]}$$$$V2.0”, the “final LC-MS purity” value is recorded as greater than 95%.

With “PEPTIDE1{[Hept6yn].[Agl-Val].V.A.F}$$$$V2.0”, the “final LC-MS purity” value was greater than 99%.

For the substance “PEPTIDE1{[Hept6yn].[Val(Me)].V.V.A.F.[NH(CH2)6NH2]}$$$$V2.0”, the “final LC-MS purity” value was greater than 99%.

Regarding “PEPTIDE1{[Hept6yn].[Val(Me)].[Agl(Me)-Val].[Ala(Me)].[Phe(Me)].[NH(CH2)6NH2]}$$$$V2.0”, the “final LC-MS purity” value is reported as greater than 95%.

“PEPTIDE1{[Hept6yn].[Val(Me)].[Agl(Me)-Val].[Ala(Me)].[Phe(Me)]}$$$$V2.0”: the “final LC-MS purity” value was greater than 95%.

As to “PEPTIDE1{[Hept6yn].[Val(Me)].[Val(Me)].[Agl(Me)-Ala].[Phe(Me)].[NH(CH2)6NH2]}$$$$V2.0”, the “final LC-MS purity” value was greater than 95%.

Regarding “PEPTIDE1{[Hept6yn].[Val(Me)].[Val(Me)].[Agl(Me)-Ala].[Phe(Me)]}$$$$V2.0”, the “final LC-MS purity” value is greater than 95%.
